This note sets out measurements from article PMC9040744 (mBio, 2022).

The experiment has as its target MACV GP1 (Machupo virus GP1 glycoprotein, residues 87 to 257) (Machupo virus (MACV)., UniProt Q6PXS3). The experiment can be described thus: crystal structure.

B1: Fab fragment of NAb MAC1 (Fab, V domains shown)
VH: QVQLQQSGAELVKPGASVKISCKASGYAFGSHWMNWVKQRPGKGLEWIGQIYPGDGDTNYNGKFKGKATLTADKSSSTAYMQFSSLTSEDSAVYFCARDDYGTRYYFDYWGQGTTLTVSS
VL: DIQMTQTTSSLSASLGDRVSISCRASQDINNYLNWYQQKPDGTVKLLIHYTSRLRSGVPSRFSGSGFGTDYSLTITNLEQEDIATYFCQQGKTLPLTFGAGTKLEIK
notes: also called Fab MAC1; MAC1 Fab; source: HEK293T, heavy and light chains coexpressed, purified
Turning to B1, the binding result was “binds”.
